{"source": "PubChem BioAssay AID624099 (ICCB-Longwood, 2012)", "aim": "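Human genes that papillomavirus E2 requires to repress the HPV18 LCR promoter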 (primary screen)", "system": "human C33A cervical carcinoma cells (HPV-negative) stably expressing BPV1 E2 and an HPV18 LCR luciferase reporter", "knock-down reagent": "siRNA pool against human genes, 40 nM", "duration": "72 h", "measurement": "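Per-well luciferase luminescence, z-scored on each plate against the plate mean and SD with control wells left out, then averaged across three replicate plates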", "reading the numbers": "mean z-score and z-score: higher = stronger reporter signal, weaker E2 silencing", "call rule": "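Mean z ≥ 2 together with z ≥ 2 in two or more of the three replicates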", "note": "This is a random part of about 21,000 reagents tested. 497 of all reagents (2.4%) count as active. 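Higher z means weaker E2 silencing; only reporter increases were scored, and knock-downs that hurt cell survival may mask genuine repressor factors.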"}
{"Target gene":"REPS2","mean z-score":-0.54,"z-score, replicate A":-0.69,"z-score, replicate B":-0.64,"z-score, replicate C":-0.28,"call":"inactive"}
{"Target gene":"CYP2C8","mean z-score":0.43,"z-score, replicate A":0.23,"z-score, replicate B":0.38,"z-score, replicate C":0.68,"call":"inactive"}
{"Target gene":"SSU72L5","mean z-score":0.86,"z-score, replicate A":1.07,"z-score, replicate B":0.81,"z-score, replicate C":0.68,"call":"inactive"}
{"Target gene":"SEPTIN14","mean z-score":0.47,"z-score, replicate A":0.49,"z-score, replicate B":0.32,"z-score, replicate C":0.61,"call":"inactive"}
{"Target gene":"PPM1G","mean z-score":0.31,"z-score, replicate A":0.36,"z-score, replicate B":0.35,"z-score, replicate C":0.23,"call":"inactive"}
{"Target gene":"COL19A1","mean z-score":-0.22,"z-score, replicate A":0.11,"z-score, replicate B":-0.5,"z-score, replicate C":-0.26,"call":"inactive"}
{"Target gene":"TIAL1","mean z-score":-0.05,"z-score, replicate A":-0.01,"z-score, replicate B":-0.14,"z-score, replicate C":0.01,"call":"inactive"}
{"Target gene":"SOCS2","mean z-score":-0.66,"z-score, replicate A":-0.53,"z-score, replicate B":-0.87,"z-score, replicate C":-0.58,"call":"inactive"}
{"Target gene":"ZNF436","mean z-score":-0.12,"z-score, replicate A":0.18,"z-score, replicate B":-0.57,"z-score, replicate C":0.03,"call":"inactive"}
{"Target gene":"LOC441243 (retired record)","mean z-score":1.67,"z-score, replicate A":1.61,"z-score, replicate B":1.73,"z-score, replicate C":1.67,"call":"inactive"}
{"Target gene":"FAM237A","mean z-score":-0.69,"z-score, replicate A":-0.56,"z-score, replicate B":-0.89,"z-score, replicate C":-0.61,"call":"inactive"}
{"Target gene":"FCAR","mean z-score":0.51,"z-score, replicate A":0.41,"z-score, replicate B":0.63,"z-score, replicate C":0.49,"call":"inactive"}

Targets above whose gene name begins with C or c (2):
{"Target gene":"CYP2C8","mean z-score":0.43,"z-score, replicate A":0.23,"z-score, replicate B":0.38,"z-score, replicate C":0.68,"call":"inactive"}
{"Target gene":"COL19A1","mean z-score":-0.22,"z-score, replicate A":0.11,"z-score, replicate B":-0.5,"z-score, replicate C":-0.26,"call":"inactive"}

Continued.
{"Target gene":"AP1M2","mean z-score":0.26,"z-score, replicate A":0.36,"z-score, replicate B":0.14,"z-score, replicate C":0.29,"call":"inactive"}
{"Target gene":"FGF14-IT1","mean z-score":0.88,"z-score, replicate A":0.72,"z-score, replicate B":0.82,"z-score, replicate C":1.11,"call":"inactive"}
{"Target gene":"LOC392749 (retired record)","mean z-score":0.69,"z-score, replicate A":1.11,"z-score, replicate B":0.96,"z-score, replicate C":0,"call":"inactive"}
{"Target gene":"LOC401169 (retired record)","mean z-score":2.8,"z-score, replicate A":2.61,"z-score, replicate B":2.26,"z-score, replicate C":3.52,"call":"active"}
{"Target gene":"TACC1","mean z-score":-0.45,"z-score, replicate A":-0.34,"z-score, replicate B":-0.61,"z-score, replicate C":-0.42,"call":"inactive"}
{"Target gene":"KRTAP10-10","mean z-score":0.81,"z-score, replicate A":1.24,"z-score, replicate B":0.49,"z-score, replicate C":0.69,"call":"inactive"}
{"Target gene":"GOLGA2P11","mean z-score":-1.05,"z-score, replicate A":-1.13,"z-score, replicate B":-1.3,"z-score, replicate C":-0.71,"call":"inactive"}
{"Target gene":"ALMS1","mean z-score":0.09,"z-score, replicate A":0.04,"z-score, replicate B":0.05,"z-score, replicate C":0.18,"call":"inactive"}
{"Target gene":"SRCIN1","mean z-score":1.06,"z-score, replicate A":1.29,"z-score, replicate B":0.69,"z-score, replicate C":1.19,"call":"inactive"}
{"Target gene":"RXYLT1","mean z-score":0.62,"z-score, replicate A":0.19,"z-score, replicate B":0.74,"z-score, replicate C":0.95,"call":"inactive"}
{"Target gene":"AKNAD1","mean z-score":1.94,"z-score, replicate A":1.31,"z-score, replicate B":2.15,"z-score, replicate C":2.37,"call":"inactive"}
{"Target gene":"RPL29P33","mean z-score":1.31,"z-score, replicate A":1.5,"z-score, replicate B":0.97,"z-score, replicate C":1.48,"call":"inactive"}
{"Target gene":"PIK3CG","mean z-score":0.42,"z-score, replicate A":0.11,"z-score, replicate B":0.78,"z-score, replicate C":0.36,"call":"inactive"}
{"Target gene":"LOC389703 (retired record)","mean z-score":-0.48,"z-score, replicate A":-0.46,"z-score, replicate B":-0.33,"z-score, replicate C":-0.64,"call":"inactive"}
{"Target gene":"TEX15","mean z-score":0.97,"z-score, replicate A":0.91,"z-score, replicate B":0.93,"z-score, replicate C":1.07,"call":"inactive"}
